Reference: PMC4376002 (Frontiers in Bioengineering and Biotechnology, 2015)

Tested on: L. pneumophila Corby isogenic mip-deficient mutant (Δmip)

## C[C@@H]1CC([C@H](O)CC2CC(=O)N(CC(=O)NC34CC5CC(CC(C5)C3)C4)C(=O)C2)[C@H](O)[C@@H](C)C1 (stereo partly drawn) [MT_30.92]
  Δmip MIC: 40 µM

## C[C@@H]1CC([C@H](O)CC2CC(=O)N(CC(=O)N(C)C(C)(C)C)C(=O)C2)C(=O)[C@@H](C)C1 (stereo partly drawn) [MT_30.9]
  Δmip MIC: 30 µM

## C[C@@H]1CC([C@H](O)CC2CC(=O)N(CC(=O)NC34CC5CC(CC(C5)C3)C4)C(=O)C2)[C@@H](O)[C@@H](C)C1 (stereo partly drawn) [MT_30.93]
  Δmip MIC: 40 µM

## CC1CC(C)C(=O)C(C(O)CC2CC(=O)N(CC(=O)NC34CC5CC(C)(CC(C)(C5)C3)C4)C(=O)C2)C1 (stereo not drawn) [MT_30.32]
  Δmip MIC: 30 µM

## CCC12CC3CC(C1)CC(NC(=O)CN1C(=O)CC(C[C@@H](O)C4C[C@@H](C)C[C@H](C)C4=O)CC1=O)(C3)C2 (stereo partly drawn) [MT_30.51]
  Δmip MIC: 30 µM

## CO[C@H]1C[C@@H]2CC[C@@H](C)[C@@](O)(O2)C(=O)C(=O)N2CCCC[C@H]2C(=O)O[C@H]([C@H](C)C[C@@H]2CC[C@@H](O)[C@H](OC)C2)CC(=O)[C@H](C)/C=C(\C)[C@@H](O)[C@@H](OC)C(=O)[C@H](C)C[C@H](C)/C=C/C=C/C=C/1C [Rapamycin, reference compound]
  Δmip MIC: ≥ 40 µM and 40 µM

Several values for one entry are separate records, joined by “and”; a condition that tells them apart may be missing. Equal entries are not always repeated.
